# Assay results as given in paper PMC9518868 (PLoS ONE, 2022).
# Sequences of proteins named here, by UniProt entry; tags and fusion partners are left off.
# UniProt P23975, whole entry: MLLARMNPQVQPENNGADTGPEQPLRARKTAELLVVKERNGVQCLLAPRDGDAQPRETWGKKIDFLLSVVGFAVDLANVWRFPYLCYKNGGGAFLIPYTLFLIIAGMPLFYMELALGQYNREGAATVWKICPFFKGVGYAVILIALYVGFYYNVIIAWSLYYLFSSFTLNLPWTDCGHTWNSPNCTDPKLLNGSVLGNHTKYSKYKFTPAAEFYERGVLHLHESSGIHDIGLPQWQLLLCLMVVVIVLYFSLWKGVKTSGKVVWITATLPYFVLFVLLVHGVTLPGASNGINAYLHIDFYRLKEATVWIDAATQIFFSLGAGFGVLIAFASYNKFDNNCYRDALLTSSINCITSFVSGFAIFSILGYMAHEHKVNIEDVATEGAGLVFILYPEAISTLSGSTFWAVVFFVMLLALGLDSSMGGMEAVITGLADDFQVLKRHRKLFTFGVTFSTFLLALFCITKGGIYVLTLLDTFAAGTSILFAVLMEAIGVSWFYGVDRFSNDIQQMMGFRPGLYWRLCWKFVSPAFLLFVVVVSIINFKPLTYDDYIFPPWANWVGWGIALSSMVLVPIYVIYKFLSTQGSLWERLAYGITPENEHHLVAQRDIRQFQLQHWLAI
# UniProt P23975, whole entry Y467F: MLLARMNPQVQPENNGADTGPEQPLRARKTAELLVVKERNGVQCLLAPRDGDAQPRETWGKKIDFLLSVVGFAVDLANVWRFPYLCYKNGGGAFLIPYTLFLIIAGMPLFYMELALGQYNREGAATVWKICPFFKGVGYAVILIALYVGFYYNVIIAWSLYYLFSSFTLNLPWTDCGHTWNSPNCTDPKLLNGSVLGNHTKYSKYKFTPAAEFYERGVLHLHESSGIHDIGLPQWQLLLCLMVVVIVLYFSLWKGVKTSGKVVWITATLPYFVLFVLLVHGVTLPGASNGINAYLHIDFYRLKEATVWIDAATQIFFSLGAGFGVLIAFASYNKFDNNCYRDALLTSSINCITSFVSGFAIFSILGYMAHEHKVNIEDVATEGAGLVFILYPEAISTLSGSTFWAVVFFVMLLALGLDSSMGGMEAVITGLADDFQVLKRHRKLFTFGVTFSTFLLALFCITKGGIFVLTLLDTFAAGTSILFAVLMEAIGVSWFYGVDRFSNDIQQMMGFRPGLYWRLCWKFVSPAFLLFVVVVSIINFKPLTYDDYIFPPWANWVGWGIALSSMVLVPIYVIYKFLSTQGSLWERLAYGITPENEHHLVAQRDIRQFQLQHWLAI
# UniProt P23975, whole entry Y467H: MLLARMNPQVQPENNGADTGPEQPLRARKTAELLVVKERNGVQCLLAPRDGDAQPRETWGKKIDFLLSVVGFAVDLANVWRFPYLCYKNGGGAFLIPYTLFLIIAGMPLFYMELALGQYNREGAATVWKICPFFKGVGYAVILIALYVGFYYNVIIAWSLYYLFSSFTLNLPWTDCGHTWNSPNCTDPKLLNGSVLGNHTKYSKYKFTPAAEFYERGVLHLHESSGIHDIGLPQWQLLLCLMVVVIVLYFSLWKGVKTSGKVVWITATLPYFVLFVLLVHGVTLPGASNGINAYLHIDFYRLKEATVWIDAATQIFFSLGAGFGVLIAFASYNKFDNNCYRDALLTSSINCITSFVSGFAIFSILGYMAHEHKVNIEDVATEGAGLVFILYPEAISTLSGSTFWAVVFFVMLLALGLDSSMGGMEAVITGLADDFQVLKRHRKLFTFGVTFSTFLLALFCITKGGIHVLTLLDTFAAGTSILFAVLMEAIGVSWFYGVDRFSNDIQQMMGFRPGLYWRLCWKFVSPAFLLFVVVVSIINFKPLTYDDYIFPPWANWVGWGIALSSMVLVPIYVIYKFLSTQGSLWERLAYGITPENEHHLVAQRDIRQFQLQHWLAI
# Columns and labels:
# WT hNET = molecular target: T1, WT hNET (Homo sapiens, UniProt P23975); assay: [^3H]WIN 35,428 binding assay, PC12 cells expressing WT hNET
# T1 construct: expressed in transfected cells; host or cells: PC12 cells, transient transfection of pcDNA3.1+ plasmid with Lipofectamine 2000
# Experimental: (§1) [^3H]WIN 35,428 and [[…] represent binding sites on hNET with different kinetic profiles. To determine whether mutation of Tyr467 alters hNET binding sites, we determined the kinetic parameters (Bmax and Kd) of [^3H]WIN 35,428 or [[…] in PC12 cells transfected with WT hNET or mutants. Cell suspensions were prepared as described above. Following cell suspension preparation, the final cell pellets were resuspended in 1 mL of assay buffer (15 mM Na2HPO4, 30 mM NaH2PO4, 122 mM NaCl, 5 mM KCl, 1 mM MgSO4, 10 mM glucose, 1 mM CaCl, and 10 nM EDTA). […] The reaction was terminated by immediate filtration through Whatman GF/B glass filters (presoaked for 2 h with 1 mM pyrocatechol) followed by three washes with ice-cold assay buffer using a Brandel cell harvester (model M-48; Brandel Inc., Gaithersburg, MD) and radioactivity was determined as described above. […]
# (§2) Results are presented as mean ± SEM, and n represents the number of independent experiments for each experiment group. Kinetic parameters (Vmax, Km, Bmax, and Kd) were determined from saturation curves by nonlinear regression analysis using a one-site model with variable slope. IC50 values for substrate and inhibitors for [^3H]DA or [^3H]NE uptake were determined from inhibition curves by nonlinear regression analysis using a one-site model with variable slope. […]
# hNET Y467F = molecular target: T2, hNET Y467F (Homo sapiens, UniProt P23975, Y467F); assay: [^3H]WIN 35,428 binding assay, PC12 cells expressing Y467F hNET
# T2 construct: expressed in transfected cells; host or cells: PC12 cells, transient transfection of pcDNA3.1+ plasmid with Lipofectamine 2000
# Experimental: as §1, §2
# hNET Y467H = molecular target: T3, hNET Y467H (Homo sapiens, UniProt P23975, Y467H); assay: [^3H]WIN 35,428 binding assay, PC12 cells expressing Y467H hNET
# T3 construct: expressed in transfected cells; host or cells: PC12 cells, transient transfection of pcDNA3.1+ plasmid with Lipofectamine 2000
# Experimental: as §1, §2
substance,measurement,setting,value
"2beta-carbomethoxy-3-beta-(4-fluorophenyl)tropane [[^3H]WIN 35,428]","Bmax of [^3H]WIN 35,428 binding",WT hNET,0.267 ± 0.063 pmol/10^6
same,Kd,WT hNET,24.7 ± 3.1 nM
same,"Bmax of [^3H]WIN 35,428 binding",hNET Y467F,0.322 ± 0.078 pmol/10^6
same,"Bmax of [^3H]WIN 35,428 binding",hNET Y467H,0.209 ± 0.034 pmol/10^6
same,Kd,hNET Y467H,31 ± 3.1 nM
